PubChem BioAssay AID504761 | Drosophila RNAi Screening Center, 2011
The screen tested about 22,000 reagents; shown is a random part of those that have a named target and a result. In the full data, 116 (0.52%) were called active. 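Calls depend on retest data that are not deposited; infection was ranked per plate without normalising between plates; the unit of the infection score is not given.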 Raw values are not corrected between plates. Unmarked entries are inactive. Not stated in the record: the amount of reagent, the time to read-out.

Assay: 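Fly genes whose silencing reduces dengue virus type 2 infection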 (primary screen)
Cells: D.Mel-2 cells from Drosophila
Reagent: long dsRNA against Drosophila genes
Challenge: infection with dengue virus type 2; dose and infection time not stated
Measured: 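Cells stained for dengue envelope protein and imaged; percent of infected cells per well on duplicate plates, ranked by infection, with stained nuclei counted for cell number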
Direction: infection score: higher = more virus-infected cells; cell count: higher = more cells in the well
Active means: 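Low infection ranks in the two replicates (chance level up to 0.065) followed by a retest with a 1.5-fold or larger significant decrease, p below 0.05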
Meaning of the calls: active = confirmed: knock-down lowers infection; inactive = not picked or not confirmed

predicted target	amplicon	infection score, replicate 1	infection score, replicate 2	cell count, replicate 1	cell count, replicate 2
CG32365 (GeneID 38876)	DRSC10040	3.16	3.19	6497	6016
CG3552 (GeneID 39097)	DRSC10370	0.47	1.81	6114	5902
RapGAP1 (GeneID 34032)	DRSC02293	4.05	7.21	6228	6640
RapGAP1 (GeneID 34032)	DRSC02294	2.48	6.08	6412	6337
RapGAP1 (GeneID 34032)	DRSC03406	4.91	0.96	5988	6385
RapGAP1 (GeneID 34032)	DRSC28628	18.7	13.9	6563	6309
RapGAP1 (GeneID 34032)	DRSC29428	14.3	21.2	3092	3996
CG14304 (GeneID 42232)	DRSC25016	3.27	7.47	6247	6051
CG13506 (GeneID 37556)	DRSC04150	9.7	16.5	5948	6819
Muc68Ca (GeneID 2768980)	DRSC10312	6.53	4.39	6402	6352
Muc68Ca (GeneID 2768980)	DRSC10313	3.01	1.78	5987	6288
RpS19a (GeneID 32635)	DRSC20281	4.65	3.65	1785	2001
CG13850 (GeneID 42630)	DRSC14700	2.85	1.49	6558	6638
Rbp1-like (GeneID 32293)	DRSC19828	2.18	3.32	6468	6715
Rbp1-like (GeneID 32293)	DRSC22075	9.69	7.65	6059	6421
Rbp1-like (GeneID 32293)	DRSC25442	2.75	3.51	6299	6917
CG31220 (GeneID 326126)	DRSC22248	1.92	3.5	6289	6822
CG31220 (GeneID 326126)	DRSC24492	5.78	10.6	6853	6091
cDIP (GeneID 42512)	DRSC14267	4.01	4.32	6003	6363
neb (GeneID 35293)	DRSC03577	3.99	4.64	5988	5995
neb (GeneID 35293)	DRSC28464	16.1	13.1	4803	3201
Rab9 (GeneID 35221)	DRSC03281	0.96	1.81	728	6226
Srp54k (GeneID 38593)	DRSC11289	0.23	1.16	6017	5703
CG10747 (GeneID 35295)	DRSC02104	27	5.8	4492	6792

3 of these entries, set out differently.
| predicted target | amplicon | infection score, replicate 1 | infection score, replicate 2 | cell count, replicate 1 | cell count, replicate 2 |
| --- | --- | --- | --- | --- | --- |
| CG13506 (GeneID 37556) | DRSC04150 | 9.7 | 16.5 | 5948 | 6819 |
| Muc68Ca (GeneID 2768980) | DRSC10312 | 6.53 | 4.39 | 6402 | 6352 |
| Muc68Ca (GeneID 2768980) | DRSC10313 | 3.01 | 1.78 | 5987 | 6288 |
